In patent US11180744B2, “Acinetobacter lysins” (priority 2014, dated 2021):

Test system: A. baumannii strain no. 1791
Assay: Mouse skin infection model
Conditions: 200 μg of P307SQ-8C or 2 μg of polymyxin B for 2 hours; p-value=0.0023, ordinary one-way ANOVA

With Polymyxin B [reference compound] the “bacterial load on infected skin” value was “reduce the bacterial load significantly”.
